In US20250353853A1, “FLAVIVIRUS INHIBITORS” (IRBM S.P.A., priority 2022, published 2025) one finds IC50 data, which are given here for 30 molecules.

In general, IC50 refers to the midpoint of a concentration-inhibition curve. Read a high IC50 as lower potency.

Molecules are shown by their SMILES. Where a name gives a salt, the structure may show the parent alone.

This assay concerns the target DEN2V NS2B-G4SG4-NS3 serine protease (Dengue virus type 2 (DENV-2), UniProt Q91H74). In words: DEN2V Protease Inhibition Assay.
Molecule `NC[C@@H](c1ccc(-c2cncnc2)cc1)[n+]1cc([N-]C(=O)Nc2cccc(C(F)(F)F)c2)on1` [Example 102, (R)-(3-(2-amino-1-(4-(pyrimidin-5-yl)phenyl)ethyl)-1,2,3-oxadiazol-3-ium-5-yl)((3-(trifluoromethyl)phenyl)carbamoyl)amide formate] registered an IC50 of 1 to 20 µM.

`O=C([N-]c1c[n+](Cc2ccc(-c3cccc4c3CNC4)cn2)no1)Nc1cccc(C(F)(F)F)c1` [Example 119, (3-((5-(isoindolin-4-yl)pyridin-2-yl)methyl)-1,2,3-oxadiazol-3-ium-5-yl)((3-(trifluoromethyl)phenyl)carbamoyl)amide] registered an IC50 of 1 to 20 µM.

Consider `Cc1noc(C)c1-c1ccc(C[n+]2cc([N-]C(=O)Nc3cncc(C(F)(F)F)c3)on2)cc1` [Example 127, (3-(4-(3,5-dimethylisoxazol-4-yl)benzyl)-1,2,3-oxadiazol-3-ium-5-yl)((5-(trifluoromethyl)pyridin-3-yl)carbamoyl)amide], for which the half-inhibitory concentration (IC50) was 1 to 20 µM.

Consider `O=C([N-]c1c[n+](Cc2ccc(-c3cnn4c3CNCC4)cn2)no1)Nc1cccc(C(F)(F)F)c1` [Example 124, (3-((5-(4,5,6,7-tetrahydropyrazolo[1,5-a]pyrazin-3-yl)pyridin-2-yl)methyl)-1,2,3-oxadiazol-3-ium-5-yl)((3-(trifluoromethyl)phenyl)carbamoyl)amide], for which the IC50 fell in the range of 1 to 20 µM.

On to `COc1ncnc(C)c1-c1ccc(C[n+]2cc([N-]C(=O)Nc3cncc(C(F)(F)F)c3)on2)nc1` [Example 136, (3-((5-(4-methoxy-6-methylpyrimidin-5-yl)pyridin-2-yl)methyl)-1,2,3-oxadiazol-3-ium-5-yl)((5-(trifluoromethyl)pyridin-3-yl)carbamoyl)amide], for which the 50% inhibitory concentration (IC50) is 1 to 20 µM.

`O=C([N-]c1c[n+](Cc2cccc(-c3cncnc3)c2)no1)Nc1cccc(C(F)(F)F)c1` [Example 50, (3-(3-(Pyrimidin-5-yl)benzyl)-1,2,3-oxadiazol-3-ium-5-yl)((3-(trifluoromethyl)phenyl)carbamoyl)amide] returned an IC50 of 1 to 20 µM.

As to `Cc1cnncc1-c1ccc(C[n+]2cc([N-]C(=O)Nc3cncc(C(F)(F)F)c3)on2)nc1` [Example 128, (3-((5-(5-methylpyridazin-4-yl)pyridin-2-yl)methyl)-1,2,3-oxadiazol-3-ium-5-yl)((5-(trifluoromethyl)pyridin-3-yl)carbamoyl)amide], the IC50 lay within 1 to 20 µM.

The molecule `Cc1noc(C)c1-c1ccc(C[n+]2cc([N-]C(=O)Nc3ccnc(C(F)(F)F)c3)on2)cc1` [Example 186, (3-(4-(3,5-dimethylisoxazol-4-yl)benzyl)-1,2,3-oxadiazol-3-ium-5-yl)((2-(trifluoromethyl)pyridin-4-yl)carbamoyl)amide] registered a half-maximal inhibitory concentration (IC50) of 1 to 20 µM.

As for `Cc1noc(C)c1-c1ccc(C[n+]2cc([N-]C(=O)Nc3cccc(C(F)(F)F)c3)on2)cc1` [Example 78, (3-(4-(3,5-dimethylisoxazol-4-yl)benzyl)-1,2,3-oxadiazol-3-ium-5-yl)((3-(trifluoromethyl)phenyl)carbamoyl)amide], the half-maximal inhibitory concentration (IC50) fell in the range of 1 to 20 µM.

The molecule `COc1ncc(-c2ccc(C[n+]3cc([N-]C(=O)Nc4cccc(C(F)(F)F)c4)on3)cc2)c(C)n1` [Example 90, (3-(4-(2-Methoxy-4-methylpyrimidin-5-yl)benzyl)-1,2,3-oxadiazol-3-ium-5-yl)((3-(trifluoromethyl)phenyl)carbamoyl)amide] displayed a half-maximal inhibitory concentration (IC50) of 0.1 to 1 µM.

As for `Cc1ncncc1-c1ccc([C@@H](C)[n+]2cc([N-]C(=O)Nc3cccc(C(F)(F)F)c3)on2)cc1` [Example 82, (R)-(3-(1-(4-(4-methylpyrimidin-5-yl)phenyl)ethyl)-1,2,3-oxadiazol-3-ium-5-yl)((3-(trifluoromethyl)phenyl)carbamoyl)amide], the concentration for half-maximal inhibition (IC50) lay within 1 to 20 µM.

`O=C([N-]c1c[n+](Cc2ccc(I)cc2)no1)Nc1cccc(C(F)(F)F)c1` [Example 47, (3-(4-iodobenzyl)-1,2,3-oxadiazol-3-ium-5-yl)((3-(trifluoromethyl)phenyl)carbamoyl)amide] gave a 50% inhibitory concentration (IC50) of 1 to 20 µM.

As for `C[C@@H](c1ccc(-c2cncnc2)cc1)[n+]1cc([N-]C(=O)Nc2cccc(C(F)(F)F)c2)on1` [Example 74, (S)-(3-(1-(4-(pyrimidin-5-yl)phenyl)ethyl)-1,2,3-oxadiazol-3-ium-5-yl)((3-(trifluoromethyl)phenyl)carbamoyl)amide], the 50% inhibitory concentration (IC50) was 1 to 20 µM.

Molecule `C[C@H](c1ccc(-c2cncnc2)cc1)[n+]1cc([N-]C(=O)Nc2cccc(C(F)(F)F)c2)on1` [Example 72, (R)-(3-(1-(4-(pyrimidin-5-yl)phenyl)ethyl)-1,2,3-oxadiazol-3-ium-5-yl)((3-(trifluoromethyl)phenyl)carbamoyl)amide] displayed a half-maximal inhibitory concentration (IC50) of 1 to 20 µM.

`Cc1cnncc1-c1ccc(C[n+]2cc([N-]C(=O)Nc3cccc(C(F)(F)F)c3)on2)nc1` [Example 129, (3-((5-(5-methylpyridazin-4-yl)pyridin-2-yl)methyl)-1,2,3-oxadiazol-3-ium-5-yl)((3-(trifluoromethyl)phenyl)carbamoyl)amide]: the IC50 was in the range of 1 to 20 µM.

As to `COc1ncc(-c2ccc(C[n+]3cc([N-]C(=O)Nc4cccc(C(F)(F)F)c4)on3)nc2)c(C)n1` [Example 134, (3-((5-(2-methoxy-4-methylpyrimidin-5-yl)pyridin-2-yl)methyl)-1,2,3-oxadiazol-3-ium-5-yl)((3-(trifluoromethyl)phenyl)carbamoyl)amide], the IC50 lay in the range of 1 to 20 µM.

Turning to `O=C([N-]c1c[n+](Cc2ccc(-c3cncnc3C3CC3)cc2)no1)Nc1cccc(C(F)(F)F)c1` [Example 91, (3-(4-(4-cyclopropylpyrimidin-5-yl)benzyl)-1,2,3-oxadiazol-3-ium-5-yl)((3-(trifluoromethyl)phenyl)carbamoyl)amide], the 50% inhibitory concentration (IC50) lay within 0.1 to 1 µM.

Molecule `O=C([N-]c1c[n+](Cc2ccc(-c3cnn(C4CCNCC4)c3)cn2)no1)Nc1cccc(C(F)(F)F)c1` [Example 120, (3-((5-(1-(piperidin-4-yl)-1H-pyrazol-4-yl)pyridin-2-yl)methyl)-1,2,3-oxadiazol-3-ium-5-yl)((3-(trifluoromethyl)phenyl)carbamoyl)amide] displayed a half-maximal inhibitory concentration (IC50) of 1 to 20 µM.

For `O=C([N-]c1c[n+](Cc2ccc(-c3ccnc(O)c3)cc2)no1)Nc1cccc(C(F)(F)F)c1` [Example 64, (3-(4-(2-hydroxypyridin-4-yl)benzyl)-1,2,3-oxadiazol-3-ium-5-yl)((3-(trifluoromethyl)phenyl)carbamoyl)amide], the IC50 is 1 to 20 µM.

In the case of `Cc1noc(C)c1-c1ccc(C[n+]2cc([N-]C(=O)Nc3cccc(C(F)(F)F)c3)on2)nc1` [Example 109, (3-((5-(3,5-dimethylisoxazol-4-yl)pyridin-2-yl)methyl)-1,2,3-oxadiazol-3-ium-5-yl)((3-(trifluoromethyl)phenyl)carbamoyl)amide], the half-maximal inhibitory concentration (IC50) was 1 to 20 µM.

In turn, `Cc1ncccc1-c1ccc(C[n+]2cc([N-]C(=O)Nc3cccc(C(F)(F)F)c3)on2)cc1` [Example 92, (3-(4-(2-methylpyridin-3-yl)benzyl)-1,2,3-oxadiazol-3-ium-5-yl)((3-(trifluoromethyl)phenyl)carbamoyl)amide] yielded an IC50 of 0.1 to 1 µM.

Regarding `O=C([N-]c1c[n+](Cc2ccc(-c3cnoc3)cc2)no1)Nc1cccc(C(F)(F)F)c1` [Example 48, (3-(4-(isoxazol-4-yl)benzyl)-1,2,3-oxadiazol-3-ium-5-yl)((3-(trifluoromethyl)phenyl)carbamoyl)amide], the IC50 lay within 1 to 20 µM.

On to `Cc1ncnc(C)c1-c1ccc(C[n+]2cc([N-]C(=O)Nc3cccc(C(F)(F)F)c3)on2)nc1` [Example 130, (3-((5-(4,6-dimethylpyrimidin-5-yl)pyridin-2-yl)methyl)-1,2,3-oxadiazol-3-ium-5-yl)((3-(trifluoromethyl)phenyl)carbamoyl)amide], for which the IC50 is 1 to 20 µM.

`Cc1ncnc(C)c1-c1ccc(C[n+]2cc([N-]C(=O)Nc3cncc(C(F)(F)F)c3)on2)nc1` [Example 132, (3-((5-(4,6-dimethylpyrimidin-5-yl)pyridin-2-yl)methyl)-1,2,3-oxadiazol-3-ium-5-yl)((5-(trifluoromethyl)pyridin-3-yl)carbamoyl)amide]: the IC50 fell in the range of 1 to 20 µM.

With `Cc1noc(C)c1-c1ccc(C[n+]2cc([N-]C(=O)Nc3cccc(C(F)(F)F)c3)on2)cn1` [Example 104, (3-((6-(3,5-dimethylisoxazol-4-yl)pyridin-3-yl)methyl)-1,2,3-oxadiazol-3-ium-5-yl)((3-(trifluoromethyl)phenyl)carbamoyl)amide], the half-inhibitory concentration (IC50) is 1 to 20 µM.

Take `O=C([N-]c1c[n+](Cc2cccc(Br)c2)no1)Nc1cccc(C(F)(F)F)c1` [Example 46, (3-(3-bromobenzyl)-1,2,3-oxadiazol-3-ium-5-yl)((3-(trifluoromethyl)phenyl)carbamoyl)amide]: the 50% inhibitory concentration (IC50) was in the range of 1 to 20 µM.

On to `COc1ncc(-c2ccc(C[n+]3cc([N-]C(=O)Nc4cccc(Cl)c4)on3)cc2)c(C)n1` [Example 113, ((3-chlorophenyl)carbamoyl)(3-(4-(2-methoxy-4-methylpyrimidin-5-yl)benzyl)-1,2,3-oxadiazol-3-ium-5-yl)amide], for which the half-maximal inhibitory concentration (IC50) fell in the range of 1 to 20 µM.

Molecule `Cc1nccnc1-c1ccc(C[n+]2cc([N-]C(=O)Nc3cccc(C(F)(F)F)c3)on2)cc1` [Example 86, (3-(4-(3-methylpyrazin-2-yl)benzyl)-1,2,3-oxadiazol-3-ium-5-yl)((3-(trifluoromethyl)phenyl)carbamoyl)amide] had a half-inhibitory concentration (IC50) of 1 to 20 µM.

`O=C([N-]c1c[n+](Cc2ccc(-c3cncnc3C(F)(F)F)cn2)no1)Nc1cccc(C(F)(F)F)c1` [Example 131, ((3-(trifluoromethyl)phenyl)carbamoyl)(3-((5-(4-(trifluoromethyl)pyrimidin-5-yl)pyridin-2-yl)methyl)-1,2,3-oxadiazol-3-ium-5-yl)amide] gave an IC50 of 1 to 20 µM.

Take `O=C([N-]c1c[n+](Cc2ccc(-c3cncnc3)cn2)no1)Nc1cccc(C(F)(F)F)c1` [Example 108, (3-((5-(pyrimidin-5-yl)pyridin-2-yl)methyl)-1,2,3-oxadiazol-3-ium-5-yl)((3-(trifluoromethyl)phenyl)carbamoyl)amide]: the IC50 was in the range of 1 to 20 µM.
